Laboratory results as given in patent publication US4230711A (priority 1979, dated 1980).

Key:
fungi = details: cited U.S. Pat. Nos. 3,178,447 and 2,553,770; cited from earlier work
[1] = tested on: Phytophthora infestans conidia; assay: Tomato Late Blight control test; format: in vivo; details: @ 250 ppm; tomato (Bonny Best) seedlings sprayed, inoculated one day later; approximately 7 days; relative to untreated check plants
[2] = tested on: Alternaria solani conidia; assay: Tomato Early Blight control test; format: in vivo; details: @ 250 ppm; tomato (Bonny Best) seedlings sprayed, inoculated one day later; about 12 days; relative to untreated check plants
Erysiphe polygoni = assay: Powdery Mildew test on bean seedlings; format: in vivo; details: @ 250 ppm; bean seedlings (var. Bountiful) sprayed, inoculated one day later; about 10 days; relative to untreated check plants

| SMILES | fungicidal activity (fungi) | % Control, Tomato Late Blight [1] [%] | % Control, Tomato Early Blight [2] [%] | % Control, Bean Powdery Mildew (Erysiphe polygoni) [%] |
| --- | --- | --- | --- | --- |
| O=C1c2ccccc2C(=O)N1SC(Cl)(Cl)C(Cl)Cl | having fungicidal activity | – | – | – |
| CC1(C)C(=O)N(SC(Cl)(Cl)C(Cl)Cl)C(=O)c2ccccc21 | – | 50 | 73 | 0 |
